From paper PMC10082729, “First study on in vitro antiviral and virucidal effects of flavonoids against feline infectious peritonitis virus at the early stage of infection” (Veterinary World, 2023)

Tested on: FIPV
Assay: Cotreatment (virucidal) assay, IPMA
Format: cell-based, feline infectious peritonitis virus

COc1ccc(-c2cc(=O)c3c(O)cc(O)c(-c4cc(-c5cc(=O)c6c(O)cc(O)cc6o5)ccc4OC)c3o2)cc1 [Isoginkgetin]
EC50 of cotreatment greater than EC50 of post-viral entry experiment: approximately 10 fold
SI (cotreatment) (cotreatment, CC50/EC50): 4.90
